This data set has as its system patient who had loss of taste and smell from COVID-19. The following applies: 80 μg theophylline nasal spray once per day, 3 months.

As to `Cn1c(=O)c2[nH]cnc2n(C)c1=O` [Theophylline], the Side effects entry was “No side effects were reported”.

The record behind these values is US20240398816A1, “Gel Treatment for Loss of Taste and Smell” (Cyrano Therapeutics, Inc., priority 2021, published 2024).
